Pooled drug test results. Numbers come from NIAID ChemDB, via PubChem.

Common to all: whole-cell or culture tests; organism: HIV-1

ECn: concentration that inhibits the pathogen or its effect by n%. An empty or dashed field is not shown. Neighbouring rows are from separate reports. Two numbers with a dash give a range or band.

smiles,method,mutations,read-out,strain,cells,value
CCN(CC)CC1Cn2c3ccccc3c3c2c(c(C#N)c(=O)n3-c2ccc([N+](=O)[O-])cc2)O1,cytopathic effect / MTT,-,EC50,LAI,MT-4,0.37 µM
COc1ccc(F)c2c(C(=O)C(=O)N3CCN(C(=O)c4ccccc4)C[C@H]3C)c[nH]c12,luciferase,-,EC50,-,HeLa + HELA CD4+/CCR5,<10 µM
COc1cc(C(=O)OCc2nc3ccccc3nc2C)cc(OC)c1OC,RT activity,-,EC50,BaL,PBMC,>100 µM
CCC(CC)N=C(N)c1ccc(-c2ccc(-c3ccc(C(N)=NC(CC)CC)cc3)o2)cc1,-,-,EC50,-,-,7 µM
Cc1nc(NC(=O)NC2CCCCCCC2)c(C)c(C(OC(C)(C)C)C(=O)O)c1-c1ccc2c(c1)CCCO2,MTT,-,EC50,IIIB,MT-4,0.014 µM
Cc1nc2ccc(Cl)cc2c(-c2ccc(CCF)cc2)c1C(OC(C)(C)C)C(=O)O,luciferase / reporter gene,-,EC50,-,C8166,<20 µM
O=C(O)c1cc(-n2cccc2)ccc1Cl,luciferase / cell fusion,-,EC50,CMU02 X4 CLADE EA,PBMC/5.25M7,22 µM
CC(C)CC(C(=O)O)c1c(-c2ccc(Cl)cc2)c2cc(Br)ccc2oc1=O,luciferase / reporter gene,-,EC50,-,C8166,<20 µM
Nc1nc2c(ncn2C2CC(O)C(COP(O)(=S)OC3CC(n4cnc5c(=O)[nH]c(N)nc54)OC3CO)O2)c(=O)[nH]1,cytopathic effect / MTT,-,EC50,IIIB,MT-4,>50 µM
CCNc1cccnc1N1CCN(C(=O)c2cc3ccccc3[nH]2)CC1,p24,-,EC50,IIIB,H9,0.06 µM
Nc1nccc2c1ncn2[C@@H]1C=C(CO)[C@@H](O)[C@H]1O,β-galactosidase,-,EC50,-,HeLa CD4+/TAT+ + HeLa,0.41 µM
N#Cc1c2c3c(c4ccccc4n3CC(CO)O2)n(-c2ccc([N+](=O)[O-])cc2)c1=O,cytopathic effect / MTT,-,EC50,LAI,MT-4,0.74 µM
COc1ccc(-c2c(C)nc(NC(=O)NC3CCCCC3)c(C)c2C(OC(C)(C)C)C(=O)O)c(C)c1,MTT,-,EC50,IIIB,MT-4,0.01 µM
CC(C)CN(CC(O)C(NC(=O)O[C@H]1CCOC1)Sc1ccccc1)S(=O)(=O)c1ccc(N)cc1,syncytia,-,EC50,-,MT-4,50 µM
Cc1ccnc2c1NC(=O)c1cccnc1N2C1CC1,luciferase,N348I,EC50,MJ4 C,HEK293T,287 nM
COC(=O)c1ccc(C(=O)OCc2nc3ccccc3nc2C)cc1,RT activity,-,EC90,BaL,PBMC,>100 µM
Cc1cc(C)cc(S(=O)(=O)c2c(C(=O)NCCO)[nH]c3ccc(Cl)cc23)c1,p24,RT-K103R V179D P225H,EC90,EFV-resistant (RT K103R V179D P225H),C8166,0.1 µM
CC(C)CN(C[C@H](O)[C@@H](NC(=O)O[C@H]1CCOC1)Sc1ccccc1)S(=O)(=O)c1ccc(N)cc1,syncytia,-,EC50,-,MT-4,>50 µM
Cc1nc2ccccc2nc1COC(=O)c1ccc(O)cc1,RT activity,-,EC50,89BZ167,PBMC,>100 µM
O=C(C(=O)N1CCN(C(=O)c2cccc(S)c2)CC1)c1c[nH]c2cccc(F)c12,luciferase,-,EC50,-,HeLa + HELA CD4+/CCR5,<10 µM
CC(C)=CCN1CC(C)Cn2c(=S)[nH]c3cccc1c32,cytopathic effect / XTT,-,EC50,6S,CEM(SS) + CEM-SS,1.29 µM
O=C(C(=O)N1CCN(C(=O)c2ccccn2)CC1)c1c[nH]c2cccc(Cl)c12,luciferase,-,EC50,-,HeLa + HELA CD4+/CCR5,<10 µM
Cc1cc(SCc2cnc3c(c2)C(=O)Nc2c(C)cc(Cl)nc2N3C2CC2)cc(C)n1,p24,-,EC50,WILD TYPE,C8166,0.0022 µM
C[C@@]12CCC[C@@](C)(C(=O)O)C1CC[C@@]13C[C@@H](CCC12)[C@@H](CO)C3,p24,-,EC50,IIIB,H9,>100 µg/mL
Nc1nc2c(ncn2C2CC(O)C(COP(O)(=S)OC3CC(n4cnc5c(=O)[nH]c(N)nc54)OC3COP(=O)(O)O)O2)c(=O)[nH]1,cytopathic effect / MTT,-,EC50,IIIB,MT-4,>100 µM
COC(C(=O)O)c1c(C)nc2ccc(Cl)cc2c1-c1ccc2occc2c1,luciferase / reporter gene,-,EC50,-,C8166,<20 µM
C[C@@]12CCC[C@@](C)(C=O)[C@H]1CC[C@@]13C[C@@H](CC[C@H]12)[C@H](C(=O)O)C3,p24,-,EC50,IIIB,H9,>100 µg/mL
Cc1nc(NC(=O)Nc2ccc(F)cc2)c(C)c(C(OC(C)(C)C)C(=O)O)c1-c1ccc2c(c1)CCCO2,MTT,-,EC50,IIIB,MT-4,0.014 µM
C=C[C@@H](O)C1=C[C@@H](n2cnc3c(N)ncnc32)[C@H](O)[C@@H]1O,β-galactosidase,-,EC50,-,HeLa CD4+/TAT+ + HeLa,6.16 µM
NC(=O)c1cccc(N=O)c1,cytopathic effect / XTT,-,EC50,RF,CEM + CEM-SS,>10.6 µM
CC(=O)CC(c1ccccc1)c1c(O)c2ccccc2oc1=O,trypan blue,-,EC50,-,ACH-2(HIV-1(IIIB)) + ACH2,0.001–0.01 µM
Nc1nc2c(ncn2[C@@H]2OC[C@H](CCP(=O)(O)O)C23CC3)c(=O)[nH]1,RT activity,-,EC50,LAV-1,PBMC,80 µM
Nc1ncnc2c1ncn2[C@@H]1CC[C@@H](O)[C@H]1O,β-galactosidase,-,EC50,-,HeLa CD4+/TAT+ + HeLa,1.3 µM
CCc1ccc(-c2c(C(OC(C)(C)CC)C(=O)O)c(C)nc3ccc(Cl)cc23)cc1,luciferase / reporter gene,-,EC50,-,C8166,<20 µM
CN(C)CC1Cn2c3ccccc3c3c2c(c(C#N)c(=O)n3-c2ccc([N+](=O)[O-])cc2)O1,cytopathic effect / MTT,-,EC50,LAI,MT-4,0.16 µM
CCN1c2ncc(CSc3cc(C)nc(C)c3)cc2C(=O)Nc2c(C)ccnc21,p24,-,EC50,WILD TYPE,C8166,0.00046 µM
Cc1ccc(C(=O)OCc2nc3ccccc3nc2C)cc1O,RT activity,-,EC90,BaL,PBMC,>100 µM
CC(=O)OC[C@@H]1CC23CCC4[C@@](C)(CCC[C@@]4(C)C(=O)O)C2CC[C@H]1C3,p24,-,EC50,IIIB,H9,>100 µg/mL
Cc1cccc(C(=O)OCc2nc3ccccc3nc2C)c1O,RT activity,-,EC50,89BZ167,PBMC,>100 µM
C=Cc1c(C)c2cc3[nH]c(cc4nc(cc5nc(cc1[nH]2)C(C)=C5CCC(=O)O)C(CCC(=O)O)=C4C)c(C)c3C=C,p24,-,EC50,-,MT-2,2.17 µM
Cc1ccc(-c2c(C)nc3c(c2C(OC(C)(C)C)C(=O)O)CCCN3C(=O)NC2CCCCC2)cc1C,MTT,-,EC50,IIIB,MT-4,0.0075 µM
O=C(C(=O)N1CCN(C(=O)c2cnccn2)CC1)c1c[nH]c2cccc(F)c12,luciferase,-,EC50,-,HeLa + HELA CD4+/CCR5,<10 µM
Nc1ncnc2c1ncn2[C@@H]1OC[C@H](/C=C/P(=O)(O)O)C12CC2,RT activity,-,EC90,LAV-1,PBMC,95 µM
O=C(C(=O)N1CCN(C(=O)c2ccccc2)CC1)c1c[nH]c2ccc(Cl)cc12,RT activity,-,EC50,BRU,MT-2,<10 µM
Nc1ncc(F)c(Cc2ccc3c(c2)NC(=O)N[C@]3(C#CC2CC2)C(F)(F)F)n1,GFP,-,EC50,-,PBMC,0.0828 µM
COc1cccc(OC)c1C(=O)OCc1nc2ccccc2nc1C,RT activity,-,EC50,89BZ167,PBMC,23.3 µM
CCCC1CN(C(=O)C(=O)c2c[nH]c3c(C(=O)OC)cccc23)CCN1C(=O)c1ccccc1,luciferase,-,EC50,-,HeLa + HELA CD4+/CCR5,<10 µM
CC(C)=CCN1Cc2c(C)ccc3[nH]c(=S)n(c23)C[C@@H]1C,cytopathic effect,-,EC50,IIIB,MT-4,0.136 µM
CCCC(C(=O)O)c1c(C)nc2ccc(Cl)cc2c1-c1ccc(F)cc1,luciferase / reporter gene,-,EC50,-,C8166,<20 µM
C[C@H]1CN(C(=O)c2ccccc2)CCN1C(=O)C(=O)c1c[nH]c2cccc(Br)c12,luciferase,-,EC50,-,HeLa + HELA CD4+/CCR5,<10 µM
CC(C)Nc1cccnc1N1CCN(C(=O)c2cc3ccccc3[nH]2)CC1,p24,-,EC50,IIIB,H9,0.04 µM
N#Cc1c2c3c(c4ccccc4n3CCN2CCN2CCCC2)n(-c2ccc([N+](=O)[O-])cc2)c1=O,cytopathic effect / MTT,-,EC50,LAI,MT-4,9.3 µM
Cc1nc2ccccc2c(-c2ccccc2O)c1C(OC(C)C)C(=O)O,luciferase / reporter gene,-,EC50,-,C8166,<20 µM
Cc1nc(Nc2cnc3ccccc3c2)c(C)c(C(OC(C)(C)C)C(=O)O)c1-c1ccc2c(c1)CCCO2,MTT,-,EC50,IIIB,MT-4,0.013 µM
NC(=NC1CCCC1)c1ccc(-c2ccc(-c3ccc(C(N)=NC4CCCC4)cc3)o2)cc1,-,-,EC50,-,-,12 µM
CCCC(C(=O)O)c1c(C)nc2ccc(Cl)cc2c1-c1ccc2ccccc2c1,luciferase / reporter gene,-,EC50,-,C8166,<20 µM

8 of the rows above, restated:

smiles,method,mutations,read-out,strain,cells,value
COC(=O)c1ccc(C(=O)OCc2nc3ccccc3nc2C)cc1,RT activity,-,EC90,BaL,PBMC,>100 µM
Cc1cccc(C(=O)OCc2nc3ccccc3nc2C)c1O,RT activity,-,EC50,89BZ167,PBMC,>100 µM
CCc1ccc(-c2c(C(OC(C)(C)CC)C(=O)O)c(C)nc3ccc(Cl)cc23)cc1,luciferase / reporter gene,-,EC50,-,C8166,<20 µM
Nc1ncnc2c1ncn2[C@@H]1OC[C@H](/C=C/P(=O)(O)O)C12CC2,RT activity,-,EC90,LAV-1,PBMC,95 µM
NC(=NC1CCCC1)c1ccc(-c2ccc(-c3ccc(C(N)=NC4CCCC4)cc3)o2)cc1,-,-,EC50,-,-,12 µM
C[C@@]12CCC[C@@](C)(C=O)[C@H]1CC[C@@]13C[C@@H](CC[C@H]12)[C@H](C(=O)O)C3,p24,-,EC50,IIIB,H9,>100 µg/mL
Cc1nc(NC(=O)NC2CCCCCCC2)c(C)c(C(OC(C)(C)C)C(=O)O)c1-c1ccc2c(c1)CCCO2,MTT,-,EC50,IIIB,MT-4,0.014 µM
C=C[C@@H](O)C1=C[C@@H](n2cnc3c(N)ncnc32)[C@H](O)[C@@H]1O,β-galactosidase,-,EC50,-,HeLa CD4+/TAT+ + HeLa,6.16 µM